The source of these data is PubChem BioAssay AID1259309 (ICCB-Longwood Screening Facility, Harvard Medical School, 2017).

“And” between values parts separate entries of the source, which are not always exact repeats. Equal entries are not always repeated. This is a selection; strong and weak results do not stand in their true shares. The source made the active and inactive calls. Rule as the data show it: active = growth inhibition above about 68%; inactive = the rest.

The nature of the test: growth inhibition of ugtP-null S. aureus, primary screen, RN4220 ugtP deletion, OD600 (AID 1259309).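 Also: plate controls were untreated wells for no effect and antibiotic for full effect.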 The settings on record: 16 h, active compounds read high.
As to `CC(C)N1C(=O)CC2(CCN(CCOC(=O)C(O)(c3ccccc3)c3ccccc3)CC2)C1=O`, the growth inhibition is inactive: 8.71%.

On to `CCN(N=Nc1nonc1N)c1nonc1N`, for which the growth inhibition is inactive: 7.67%.

Turning to `CP(=O)(Nc1ccc(Cl)cc1Cl)Oc1ccccc1` (stereo not drawn), the growth inhibition was inactive: -2.6%.

As for `CCOP(=O)(Nc1ccccc1)OCC`, the growth inhibition was inactive: 2.98%.

On to `Cc1cc(SC(NC(=O)c2ccc(F)cc2)C(Cl)(Cl)Cl)ncn1` (stereo not drawn), for which the growth inhibition was inactive: 15%.

For `Cc1ccc(NP(=O)(Oc2ccccc2F)Oc2ccccc2F)nc1`, the growth inhibition is inactive: 1.52%.

Regarding `COc1ccccc1OP(C)(=O)Nc1ccc(C)c(C)c1` (stereo not drawn), the growth inhibition is inactive: -5.5%.

Turning to `CC(C)=NN=C(N)N[N+](=O)[O-]`, the growth inhibition was inactive: -3.58%.

As for `O=C(O)c1ccccc1[As](=O)(O)O`, the growth inhibition is inactive: 7.84%.

`CC(=O)Nc1ccc([As](=O)(O)O)cc1`: the growth inhibition is inactive: 7.48%.

With `CCCC1OP(N)(=O)OCC1CC` (stereo not drawn), the growth inhibition is inactive: 1.59%.

With `CCN(CC)CC(C)C(C)OC(=O)C(O)(c1ccccc1)c1ccccc1` (stereo not drawn), the growth inhibition was inactive: -0.302%.

Turning to `O=C1C(O)=C([N+](=O)[O-])C(=O)C(O)=C1[N+](=O)[O-]`, the growth inhibition is inactive: 2.02%.

Regarding `Cc1cc(C)cc(OP(C)(=O)Nc2cccc(C(F)(F)F)c2)c1` (stereo not drawn), the growth inhibition was inactive: -21.5%.

With `O=P(Nc1nc2ccc(Cl)cc2s1)(c1ccccc1)c1ccccc1`, the growth inhibition was inactive: -12.7%.

In the case of `CP(=O)(Nc1ccccn1)Oc1ccccc1` (stereo not drawn), the growth inhibition is inactive: 7.95%.

Take `COc1ccccc1OP(C)(=O)Nc1ccc(C)cc1C` (stereo not drawn): the growth inhibition is inactive: 5.12%.

For `CCc1ccc(OP(C)(=O)O)cc1`, the growth inhibition was inactive: 16.8%.

Regarding `CC(C)CC(=O)NC(Sc1ccc(Cl)cc1)C(Cl)(Cl)Cl` (stereo not drawn), the growth inhibition is inactive: -23%.

On to `O=[N+]([O-])c1cc([N+](=O)[O-])c(Nc2ccccn2)c([N+](=O)[O-])c1`, for which the growth inhibition is active: 96.3%.

For the molecule `Cc1c(NP(C)(=O)Oc2ccc(C(C)C)cc2)c(=O)n(-c2ccccc2)n1C` (stereo not drawn), the growth inhibition was inactive: 6.38%.

On to `Nc1cc(N)c2nonc2c1[N+](=O)[O-]`, for which the growth inhibition was inactive: -2.7%.

Take `Oc1ccccc1CNc1ccccn1`: the growth inhibition is inactive: 9.94%.

Turning to `O=C(NC(Sc1ccncn1)C(Cl)(Cl)Cl)c1ccccc1` (stereo not drawn), the growth inhibition is inactive: 5.88%.

Take `COc1ccc(OP(C)(=O)Nc2ccccn2)cc1` (stereo not drawn): the growth inhibition was inactive: -4.06%.

Consider `COc1ccccc1OP(=O)(Nc1ccc(C)cn1)Oc1ccccc1OC`, for which the growth inhibition was inactive: 0.142%.

`Cc1ccc(OP(=O)(Nc2nccs2)Oc2ccc(C)cc2)cc1`: the growth inhibition is inactive: -4.27%.

For `Clc1ccc(Cl)c(NC2=NCC(CBr)S2)c1` (stereo not drawn), the growth inhibition is inactive: 1.96%.

For the molecule `CN(C)CCOC(=O)C(O)(c1ccccc1)C1CCCC1` (stereo not drawn), the growth inhibition is inactive: 2.6%.

On to `CN1CCCC(OC(=O)C(c2ccccc2)c2ccccc2)C1` (stereo not drawn), for which the growth inhibition is inactive: 1.8%.

Regarding `NC(=O)c1cc([N+](=O)[O-])cc([N+](=O)[O-])c1N`, the growth inhibition was inactive: -1.86%.

Turning to `COc1ccccc1OP(C)(=O)Nc1ccc(Br)cc1` (stereo not drawn), the growth inhibition was inactive: -2.48%.

On to `CN(C)C(=O)c1c([N+](=O)[O-])cc([N+](=O)[O-])cc1[N+](=O)[O-]`, for which the growth inhibition is inactive: 28.5%.

As to `CN(C(=O)Cc1ccc(Cl)c(Cl)c1)C1CCCCC1N1CCCC1` (stereo not drawn), the growth inhibition is inactive: 2.24% and inactive: 2.49% and inactive: 8.17%.

For the molecule `CC1CCN(C(=O)Oc2c(Cl)cc(Cl)c3cccnc23)CC1`, the growth inhibition was inactive: -1.64%.

`CC(C)(C)c1ccc(OP(C)(=O)O)cc1`: the growth inhibition was inactive: 2.64%.

As to `Nc1ccc([As](=O)(O)c2ccc(N)cc2)cc1`, the growth inhibition is inactive: 2.38%.

For the molecule `COc1ccccc1OP(C)(=O)Nc1ccccc1Br` (stereo not drawn), the growth inhibition is inactive: 4.23%.

Regarding `C[N+]1=C2C=CC=CC=C2SC12C([N+](=O)[O-])=CC([N+](=O)[O-])=C[C-]2[N+](=O)[O-]` (stereo not drawn), the growth inhibition was inactive: 73.7%.

As to `CP(=O)(Nc1ccc(Cl)cc1)Oc1ccc(F)cc1` (stereo not drawn), the growth inhibition is inactive: -3.16%.

For the molecule `COc1ccccc1OP(C)(=O)Nc1c(C)n(C)n(-c2ccccc2)c1=O` (stereo not drawn), the growth inhibition was inactive: -0.653%.

Turning to `O=[N+]([O-])c1cccc2n[nH]nc12`, the growth inhibition is inactive: 10.6%.

For the molecule `CC(=O)N1C2C3N(C(C)=O)C1C1N(C(C)=O)C(C(N1C(C)=O)N3C(C)=O)N2C(C)=O`, the growth inhibition is inactive: 0.841%.

Turning to `O=C(OCCCN1CCCC1)C(O)(c1ccccc1)C1CCCCC1` (stereo not drawn), the growth inhibition is inactive: 4.72%.

Take `CP(=O)(Oc1ccccc1)N1CCOC1=O` (stereo not drawn): the growth inhibition is inactive: 8.4%.

On to `Cc1ccc(NP(=O)(Oc2ccccc2)Oc2ccccc2)nc1`, for which the growth inhibition was inactive: 4.48%.

Regarding `CCc1nc2c(n1)c1c(non1O)c1c2no[n+]1[O-]`, the growth inhibition is inactive: -14.8%.

For `O=[N+]([O-])c1cc([N+](=O)[O-])c(CCNc2ccccc2)c([N+](=O)[O-])c1`, the growth inhibition is inactive: 12.5%.

Consider `CCc1ccc(OP(C)(=O)Nc2cccnc2)cc1` (stereo not drawn), for which the growth inhibition is inactive: 3.57%.

For the molecule `CCN(CC)CC(O)COC(=O)C(O)(c1ccccc1)C1CCCCC1` (stereo not drawn), the growth inhibition was inactive: 2.58%.

In the case of `COc1ccc(OP(C)(=O)Nc2ccc(Br)cc2)cc1` (stereo not drawn), the growth inhibition is inactive: -12.7%.

As to `COc1ccc(C2=NCC(CBr)S2)cc1` (stereo not drawn), the growth inhibition was inactive: 1.53%.

For `O=[N+]([O-])c1cccc(NC2=NCC(CBr)S2)c1` (stereo not drawn), the growth inhibition is inactive: -1.92%.

In the case of `O=C(O)CNc1ccc([As](=O)(O)O)cc1`, the growth inhibition was inactive: 4.82%.

With `CC(C)(C)C(=O)NC(Sc1ccncn1)C(Cl)(Cl)Cl` (stereo not drawn), the growth inhibition is inactive: 9.8%.

As to `O=[N+]([O-])c1ncn(CCn2ncnc2[N+](=O)[O-])n1`, the growth inhibition is inactive: 10%.

On to `O=C(Nc1cc([As](=O)(O)O)ccc1O)c1ccccc1`, for which the growth inhibition was inactive: 6.18%.

For the molecule `CP(=O)(OC12CC3CC(CC(C3)C1)C2)OC12CC3CC(CC(C3)C1)C2`, the growth inhibition was inactive: -10.9%.

`Nc1ccc2c(ccc3cccnc32)n1.O=[N+]([O-])c1cc([N+](=O)[O-])c(O)c([N+](=O)[O-])c1`: the growth inhibition was inactive: -1.74%.

On to `O=P1(N(CCCl)CCCl)OCCCS1` (stereo not drawn), for which the growth inhibition is inactive: 0.8%.

As to `O=[N+]([O-])c1ccc(O)c(C=NNc2ccc([N+](=O)[O-])cc2[N+](=O)[O-])c1`, the growth inhibition is inactive: 64.3%.

Take `Cc1c(C(c2ccc3c(c2)OCO3)c2c(C)n(C)n(-c3ccccc3)c2=O)c(=O)n(-c2ccccc2)n1C.O=[N+]([O-])c1cc([N+](=O)[O-])c(O)c([N+](=O)[O-])c1`: the growth inhibition is inactive: -8.96%.

With `Nc1ccc([As](=O)(O)c2ccc([N+](=O)[O-])cc2)cc1`, the growth inhibition was inactive: 9.57%.

Turning to `C(Cc1nn[nH]n1)Cc1nn[nH]n1`, the growth inhibition is inactive: 6.27%.

Consider `O=C(OC1CN2CCC1CC2)c1cccc(Cl)c1` (stereo not drawn), for which the growth inhibition is inactive: 1.68%.

For the molecule `CC(=O)NC(SC(=S)N(C)C)C(Cl)(Cl)Cl` (stereo not drawn), the growth inhibition was inactive: 37.7%.

Turning to `O=[N+]([O-])c1ccc(OP2(=O)COCCO2)cc1` (stereo not drawn), the growth inhibition was inactive: 2.59%.

Regarding `O=[N+]([O-])c1ncn(CCn2cnc([N+](=O)[O-])n2)n1`, the growth inhibition was inactive: 9.33%.

On to `O=[As](O)(c1ccccc1)c1ccc(O)cc1`, for which the growth inhibition is inactive: 5.87%.

With `CN(C(=O)Cc1ccc(Cl)c(Cl)c1)C1CC[C@@]2(CCCO2)CC1N1CCCC1` (stereo partly drawn), the growth inhibition was inactive: 0.0225%.

Take `Cc1cc(-c2cccc3ccccc23)c(C)cn1.O=[N+]([O-])c1cc([N+](=O)[O-])c(O)c([N+](=O)[O-])c1`: the growth inhibition is inactive: 12.4%.

`O=[N+]([O-])c1cc([N+](=O)[O-])c(NCC2CCS(=O)(=O)C2)c([N+](=O)[O-])c1` (stereo not drawn): the growth inhibition is inactive: 80.5%.

Turning to `CCN(C(=NP(=O)(N1CCOCC1)N1CCOCC1)N1CCOCC1)c1ccc(OC)cc1`, the growth inhibition is inactive: 3.81%.

Consider `O=P(Nc1nc2ccccc2s1)(c1ccccc1)c1ccccc1`, for which the growth inhibition is inactive: -1.05%.

Regarding `COc1ccc(NP(C)(=O)Oc2ccccc2OC)cc1` (stereo not drawn), the growth inhibition is inactive: -0.976%.

As for `COc1ccc(OP(C)(=O)Nc2cccc(Br)c2)cc1` (stereo not drawn), the growth inhibition is inactive: 2.79%.

Consider `CC(C)C=NN=C(N)N[N+](=O)[O-]`, for which the growth inhibition was inactive: 3.45%.

As to `COc1ccc(N)c([N+](=O)[O-])c1[N+](=O)[O-]`, the growth inhibition was inactive: 5.51%.

Take `C=CCN1CCN(CCOC(=O)C(O)(c2ccccc2)c2ccccc2)CC1`: the growth inhibition is inactive: 7.25%.

As to `O=P(Nc1ccccn1)(c1ccc(Br)cc1)c1ccc(Br)cc1`, the growth inhibition is inactive: 4.51%.

For the molecule `CN(C)C1(CNC(=O)c2ccc(Cl)c(S(N)(=O)=O)c2)CCCCC1`, the growth inhibition was inactive: 4.1%.

For the molecule `Cc1ccccc1NP(C)(=O)Nc1ccccc1C`, the growth inhibition is inactive: -1.84%.

`CP(=O)(Nc1ccc2c(c1)OCCO2)Oc1ccccc1` (stereo not drawn): the growth inhibition was inactive: 2.98%.

For `CCOP(C)(=S)SCC(=O)NC(C)(CC)C(=O)O` (stereo not drawn), the growth inhibition was inactive: 0.828%.

Take `c1nnnn1CCn1cnnn1`: the growth inhibition is inactive: 6.41%.

Take `CP(=O)(Nc1ccc(SC(F)(F)F)cc1)Oc1ccc(F)cc1` (stereo not drawn): the growth inhibition is inactive: -15.6%.

As for `CC(C)C(=O)NC(Sc1ccccc1)C(Cl)(Cl)Cl` (stereo not drawn), the growth inhibition was inactive: -2.19%.

Consider `O=P(Nc1nccs1)(c1ccccc1)c1ccccc1`, for which the growth inhibition was inactive: -0.909%.

In the case of `CCNC(=S)N=C(N)N[N+](=O)[O-]`, the growth inhibition is inactive: 3.76%.

As for `CC(=O)Nc1ccc([As](=O)(O)O)c(O)c1`, the growth inhibition is inactive: 4.07%.

For `CC(=O)Nc1ccc(Oc2c([N+](=O)[O-])cc([N+](=O)[O-])cc2[N+](=O)[O-])cc1`, the growth inhibition is inactive: 13.9%.

Consider `NC(=NO)c1c(N)no[n+]1[O-]`, for which the growth inhibition was inactive: -2.54%.

`CC(=O)c1ccc(N2CC2c2ccncc2)cc1` (stereo not drawn): the growth inhibition is inactive: 4.37%.

Consider `O=C(OC1CN2CCC1CC2)c1ccc([N+](=O)[O-])cc1` (stereo not drawn), for which the growth inhibition is inactive: 10.8%.

With `Cc1ccccc1CN(C)C(=O)COC(=O)C(O)(c1ccccc1)c1ccccc1`, the growth inhibition is inactive: 9.69%.

Regarding `O=C(OCCN1CCN(CCOCc2ccccc2)CC1)C(O)(c1ccccc1)c1ccccc1`, the growth inhibition was inactive: -0.507%.

In the case of `CCc1cc(O)c([N+](=O)[O-])c(C)c1[N+](=O)[O-]`, the growth inhibition is inactive: 20.7%.

With `CP(=O)(Nc1ccccc1F)Oc1ccccc1` (stereo not drawn), the growth inhibition was inactive: -0.451%.
